For 1 substance, Kd results are on record in publication PMC12314560.

For orientation: Kd means a measure of binding affinity in units of concentration. A higher Kd goes with lower affinity.

This test concerns the target S1-antibody. Briefly: BLI. Conditions: domain or fragment.

Consider “Recombinant protein of wild-type SARS-CoV-2 spike subunit 1 (from UniProt P0DTC2)”, for which the Kd turned out to be 0.603 nM.
